Measurements reported in PubChem BioAssay AID504761 (Drosophila RNAi Screening Center, 2011)
Aim: 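Insect host genes that dengue virus relies on to spread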 (primary screen). System: D.Mel-2 cells from Drosophila. Reagent: long dsRNA against Drosophila genes. Treatment: infection with dengue virus type 2; dose and infection time not stated. Measurement: 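Per well on two replicate plates, imaging gave the percent of cells positive for viral envelope protein, ranked by infection, and a nuclear count of cells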. Scale: infection score: higher = more virus-infected cells. Active means: 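Low infection ranks in the two replicates (chance level up to 0.065) followed by a retest with a 1.5-fold or larger significant decrease, p below 0.05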. Calls: active = confirmed: knock-down lowers infection; inactive = not picked or not confirmed.
The deposit covers about 22,000 reagents; shown is an unselected part of those that have a named target and a result. Over the whole deposit, 116 (0.52%) were called active. 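Calls depend on retest data that are not deposited; infection was ranked per plate without normalising between plates; the unit of the infection score is not given.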 Unmarked entries are inactive. Reagents against one gene are numbered here. Not all columns of the deposit are shown. Not stated in the record: the amount of reagent, the time to read-out.

CG4462 #1 | infection score, replicate 1 = 1.74
CG4462 #2 | infection score, replicate 1 = 4.99
Ank2 #1 | infection score, replicate 1 = 0.75
Ank2 #2 | infection score, replicate 1 = 2.54
Ank2 #3 | infection score, replicate 1 = 6.09
Ank2 #4 | infection score, replicate 1 = 3.59
Ank2 #5 | infection score, replicate 1 = 0.83
Ank2 #6 | infection score, replicate 1 = 14.3
CG11379 | infection score, replicate 1 = 7.1
Lgr4 #1 | infection score, replicate 1 = 2.04
Lgr4 #2 | infection score, replicate 1 = 9.16
Lgr4 #3 | infection score, replicate 1 = 10.9
